## In-gel DMS probing of monomeric and dimeric HIV-1 RNA

The measurements come from Ye et al. 2022 (doi:10.1038/s41594-022-00746-2).

RNA: 5' end of the HIV-1 NL4-3 genome, made in vitro. Positions 1-437 read:
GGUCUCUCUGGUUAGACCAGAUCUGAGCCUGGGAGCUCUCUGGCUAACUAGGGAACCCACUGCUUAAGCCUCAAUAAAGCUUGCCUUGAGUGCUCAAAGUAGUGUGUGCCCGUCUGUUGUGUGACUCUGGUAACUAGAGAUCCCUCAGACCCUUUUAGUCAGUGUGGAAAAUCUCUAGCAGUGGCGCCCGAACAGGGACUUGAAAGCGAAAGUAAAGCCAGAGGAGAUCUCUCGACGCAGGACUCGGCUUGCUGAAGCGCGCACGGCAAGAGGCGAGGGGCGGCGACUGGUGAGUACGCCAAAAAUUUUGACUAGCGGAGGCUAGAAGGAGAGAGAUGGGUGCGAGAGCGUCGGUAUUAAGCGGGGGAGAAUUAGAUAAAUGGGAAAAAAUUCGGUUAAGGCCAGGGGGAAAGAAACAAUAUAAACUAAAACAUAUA

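Mutant RNA libraries with 1G, 2G or 3G starts, with or without cap, were folded at 37 °C for 30 min. High salt was 300 mM KCl and 5 mM MgCl2, low salt 40 mM KCl and 0.1 mM MgCl2; monomer and dimer were parted on a native gel. Gel slices were treated with 170 mM dimethyl sulfate for 15 min at 37 °C and read by mutational profiling against an ethanol control.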

Values are winsor-normalised DMS reactivities of A and C; higher means more reactive, usually unpaired.
One numbering serves 1G, 2G and 3G.
A position is written with its base.

| # | position | domain | 3G uncapped high-salt dimer | 1G capped low-salt monomer | 2G capped low-salt monomer |
|---|---|---|---|---|---|
| 1 | A19 | TAR | 0.03 | 0.04 | 0.03 |
| 2 | A26 | TAR | 0.08 | 0.18 | 0.09 |
| 3 | C28 | TAR | 0.03 | 0.04 | 0.03 |
| 4 | C44 | TAR | 0.03 | 0.04 | 0.03 |
| 5 | A55 | TAR | 0.21 | 0.51 | 0.26 |
| 6 | C58 | PolyA | 0.03 | 0.21 | 0.98 |
| 7 | C63 | PolyA | 0.46 | 0.11 | 0.25 |
| 8 | C69 | PolyA | 0.10 | 0.04 | 0.03 |
| 9 | A74 | PolyA | 0.74 | 0.73 | 0.76 |
| 10 | A76 | PolyA | 0.24 | 0.27 | 0.25 |
| 11 | C95 | PolyA | 0.41 | 0.52 | 0.60 |
| 12 | A96 | PolyA | 0.26 | 0.27 | 0.25 |
| 13 | A97 | PolyA | 0.50 | 0.47 | 0.44 |
| 14 | C114 | none | 0.22 | 0.20 | 0.20 |
| 15 | C125 | PAS | 0.08 | 0.09 | 0.08 |
| 16 | A136 | PBS | 0.10 | 0.10 | 0.12 |
| 17 | A138 | PBS | 0.11 | 0.13 | 0.15 |
| 18 | A140 | PBS | 0.37 | 0.42 | 0.47 |
| 19 | C142 | PBS | 0.06 | 0.07 | 0.08 |
| 20 | A147 | PBS | 0.36 | 0.44 | 0.44 |
| 21 | C150 | PBS | 0.04 | 0.08 | 0.09 |
| 22 | C152 | PBS | 0.79 | 0.82 | 0.80 |
| 23 | A157 | PBS | 0.87 | 0.90 | 0.85 |
| 24 | C160 | PBS | 0.08 | 0.04 | 0.05 |
| 25 | A161 | PBS | 0.44 | 0.48 | 0.48 |
| 26 | A168 | PBS | 0.45 | 0.46 | 0.46 |
| 27 | A170 | PBS | 0.47 | 0.53 | 0.52 |
| 28 | C179 | PBS | 0.95 | 0.72 | 0.80 |
| 29 | A180 | PBS | 0.63 | 0.52 | 0.55 |
| 30 | C189 | PBS | 0.07 | 0.11 | 0.08 |
| 31 | A191 | PBS | 0.35 | 0.39 | 0.39 |
| 32 | C199 | PBS | 0.45 | 0.46 | 0.45 |
| 33 | A215 | PBS | 0.58 | 0.51 | 0.48 |
| 34 | A220 | antiPAS | 0.18 | 0.32 | 0.33 |
| 35 | C238 | none | 0.49 | 0.72 | 0.74 |
| 36 | C243 | SL1 | 0.03 | 0.06 | 0.07 |
| 37 | A255 | SL1 | 0.37 | 0.47 | 0.41 |
| 38 | A268 | SL1 | 0.14 | 0.31 | 0.27 |
| 39 | A271 | SL1 | 0.46 | 0.57 | 0.49 |
| 40 | A286 | SL2 | 0.57 | 0.50 | 0.51 |
| 41 | A296 | SL2 | 0.52 | 0.60 | 0.58 |
| 42 | C297 | SL2 | 0.12 | 0.17 | 0.19 |
| 43 | C300 | none | 0.08 | 0.05 | 0.05 |
| 44 | A302 | none | 1.18 | 1.24 | 1.16 |
| 45 | A303 | none | 0.07 | 0.08 | 0.07 |
| 46 | A304 | none | 0.12 | 0.16 | 0.13 |
| 47 | A314 | SL3 | 0.03 | 0.04 | 0.04 |
| 48 | A332 | none | 0.46 | 0.65 | 0.60 |
| 49 | A347 | none | 0.16 | 0.26 | 0.22 |
| 50 | C349 | none | 0.26 | 0.32 | 0.33 |
| 51 | C352 | none | 0.37 | 0.46 | 0.38 |
| 52 | A356 | none | 0.98 | 1.08 | 0.96 |
| 53 | A359 | none | 0.48 | 0.37 | 0.46 |
| 54 | C362 | none | 0.38 | 0.27 | 0.41 |
| 55 | A370 | none | 0.47 | 0.53 | 0.50 |
| 56 | A386 | none | 1.33 | 1.33 | 1.30 |
| 57 | A388 | none | 0.06 | 0.08 | 0.07 |
| 58 | C402 | none | 0.03 | 0.04 | 0.03 |
| 59 | A404 | none | 0.27 | 0.17 | 0.21 |
| 60 | A410 | none | 0.40 | 0.40 | 0.42 |
| 61 | A416 | none | 0.40 | 0.42 | 0.46 |
| 62 | C417 | none | 0.76 | 0.84 | 0.80 |
| 63 | A423 | none | 0.36 | 0.41 | 0.39 |
| 64 | A425 | none | 0.47 | 0.52 | 0.48 |
| 65 | C426 | none | 0.71 | 0.77 | 0.72 |
| 66 | A430 | none | 0.47 | 0.55 | 0.51 |